This assay has as its system 105-kDa cell receptor protein. Put plainly: Virus Overlay Protein Binding Assay (VOPBA) on Vero plasma membrane proteins. As to conditions: Vero cells, papain 50 mU/ml, without cycloheximide.

B1: Papain (protein, UniProt P00784 134-345, looked up)
Papain: IPEYVDWRQKGAVTPVKNQGSCGSCWAFSAVVTIEGIIKIRTGNLNEYSEQELLDCDRRSYGCNGGYPWSALQLVAQYGIHYRNTYPYEGVQRYCRSREKGPYAAKTDGVRQVQPYNEGALLYSIANQPVSVVLEAAGKDFQLYRGGIFVGPCGNKVDHAVAAVGYGPNYILIKNSWGTGWGENGYIRIKRGTGNSYGVCGLYTSSFYPVKN
notes: Papain (EC 3.4.22.2) from Carica papaya, a cysteine endopeptidase
On to B1, for which the “time for virus binding to the 105-kDa protein to reach its original level after removal of the protease” value is ≤ 4 h.

These data come from US8168193B2, “Molecules, compositions, methods and kits for applications associated with flaviviruses” (National University of Singapore, priority 2003, dated 2012).
